Reference: PubChem BioAssay AID1478 (National Center for Advancing Translational Sciences (NCATS), 2009)
This is a selection; strong and weak results do not stand in their true shares. Calls of active or inactive are those of the source. Calls come from the whole dose curve; as a rule, active = well fitted inhibition curve with a large enough effect; inconclusive = small, poorly fitted or top-dose-only effect; inactive = flat fitted curve, though single readings scatter.

Protein sequences, listed by entry. Tags and fused reporters are not part of them. Residues count along the entry.
UniProt P25779, 123-467 limits assumed: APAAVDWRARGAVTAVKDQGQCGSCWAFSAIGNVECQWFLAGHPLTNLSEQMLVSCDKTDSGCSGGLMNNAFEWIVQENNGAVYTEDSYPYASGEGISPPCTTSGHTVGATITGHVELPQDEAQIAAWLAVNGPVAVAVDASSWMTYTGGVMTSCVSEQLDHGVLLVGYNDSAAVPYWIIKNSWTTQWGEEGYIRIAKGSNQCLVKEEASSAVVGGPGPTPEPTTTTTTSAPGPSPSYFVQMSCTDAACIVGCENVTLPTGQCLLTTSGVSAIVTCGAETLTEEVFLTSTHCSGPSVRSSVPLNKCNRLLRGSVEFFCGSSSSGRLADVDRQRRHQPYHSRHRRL

These compounds were tested against Cruzipain (Trypanosoma cruzi) (UniProt P25779) (assay: qHTS Assay for Promiscuous and Specific Inhibitors of Cruzain (with detergent)). Conditions: purified cruzain, Z-FR-AMC fluorescence, 0.01% Triton.
Protocol: Cruzain (3.4.22.51) is a cysteine protease from the tropical parasite Trypanosoma cruzi. Dual qHTS experiment was performed against the NCGC compound collection in order to 1) identify novel inhibitors of the enzyme and 2) profile the compound collection for promiscuous inhibitors operating via colloidal aggregation (by performing detergent-free and detergent-containing comparison screens). Cruzain was assayed by the use of fluorogenic coumarin-based substrate Z-FR-AMC: proteolytic cleavage releases AMC, whose fluorescence is measured at 360 nm excitation and 450 nm emission. Purified cruzain was supplied by the labs of Prof. James McKerrow and Brian Shoichet, UC San Francisco.
This assay had 0.01% Triton X-100 concentration. See also releated assay "qHTS Assay for Promiscuous and Specific Inhibitors of Cruzain (without detergent)" with 0.00005% Triton X-100.
See following references for additional details:
Assay Provider: Shoichet, Brian; University of California, San Fancisco
Screening Center PI: Austin, C.P.
Screening Center: NIH Chemical Genomics Center [NCGC]
Buffer: 100 mM Sodium Acetate, pH 5.5, 5 mM DTT, Triton X-100 concentration: 0.01%.
Buffer in columns 3 and 4 as negative control (no enzyme).
Substrate solution: 2 uM final concentration of Z-FR-AMC (catalog number I-1160, Bachem) dispensed throughout the plate.
Enzyme: 1.5 nM Cruzain final concentration in columns 1, 2, 5-48. Column 1 is neutral (100% activity). Column 2 contained titration of covalent inhibitor K11777, starting concentration 1 mM, then 1:2 dilution in duplicate).
Three uL of enzyme or buffer were dispensed to 1536-well Greiner black solid bottom plates. Compounds and controls (23 nL) were transferred via Kalypsys PinTool. The plates were incubated for 15 min at room temperature, and then 1 uL of substrate solution was added to start the reaction. The plates were immediately transferred to and read 4 times every 30 seconds for 2 min on ViewLux High-throughput CCD imager (Perkin-Elmer) using 360 nm excitation and 450 nm emission fluorescence protocol. The fluorescence intensity difference between the third and the first time points (time lapse of 60 seconds) was used to compute reaction progress.
Note: nearly all actives have a fitted effect of over 40% in size.

Q: For `CN1CCN(CCOC(=O)C(O)(c2ccccc2)c2ccccc2)CC1`, which max response, negative = inhibition is on record?
A: inactive: -1.98%

Q: For `O=C(NCC1(N2CCOCC2)CCCCC1)c1cc(=O)[nH]c2ccccc12`, which max response, negative = inhibition is on record?
A: inactive: 5.24%

Q: How did the max response, negative = inhibition turn out when `CCCOc1cccc(C(=O)NCC2(N3CCOCC3)CCCCC2)c1` was run?
A: inactive: 1.67%

Q: How did the max response, negative = inhibition turn out when `CCOc1ccc(C(=O)NCC2(N3CCOCC3)CCCCC2)cc1` was run?
A: inactive: 0.0962%

Q: `N#CC1(Nc2ccccc2)CCN(CCc2ccccc2)CC1` was tested. Which max response, negative = inhibition did it give?
A: inactive: 3.37%

Q: With `CCCCOc1ccccc1C(=O)NCC1(N2CCOCC2)CCCCC1` as the compound, how does the max response, negative = inhibition read?
A: inactive: -3.17%

Q: For `O=C(NCC1(N2CCOCC2)CCCCC1)c1ccccc1Br`, which max response, negative = inhibition is on record?
A: inactive: -0.811%

Q: How did the max response, negative = inhibition turn out when `NC1CCCCC1.NP(=O)(O)N(CCCl)CCCl` was run?
A: inactive: 1.91%

Q: `CCOP(=O)(Cl)Cl` was tested. Which max response, negative = inhibition did it give?
A: inactive: -0.988%

Q: How did the max response, negative = inhibition turn out when `O=C(OC1CN2CCC1CC2)C1c2ccccc2Oc2ccccc21` (stereo not given) was run?
A: inactive: -2%

Q: For `O=C(NCC1(N2CCOCC2)CCCCC1)c1cc2ccccc2o1`, which max response, negative = inhibition is on record?
A: inactive: -1.24%

Q: Which max response, negative = inhibition does the source give for `COc1ccc(NC2CCN(CCc3ccccc3)CC2)c(OC)c1` here?
A: inactive: 1.15%

Q: How did the max response, negative = inhibition turn out when `COc1ccccc1C(=O)NCC1(N2CCOCC2)CCCCC1` was run?
A: inactive: -0.42%

Q: How did the max response, negative = inhibition turn out when `O=C(NCC1(N2CCOCC2)CCCCC1)c1ccc(Cl)cc1` was run?
A: inactive: 20.5%

Q: For `CC(C)(C)c1ccc(C(=O)NCC2(N3CCOCC3)CCCCC2)cc1`, which max response, negative = inhibition is on record?
A: inactive: 7.3%

Q: With `Cc1ccccc1C(=O)NCC1(N(C)C)CCCCC1` as the compound, how does the max response, negative = inhibition read?
A: inactive: -1.06%

Q: With `CCN1CCC(Nc2cccc(F)c2)CC1` as the compound, how does the max response, negative = inhibition read?
A: inactive: 1.8%

Q: For `Fc1ccccc1NC1CCN(Cc2ccccc2)CC1`, which max response, negative = inhibition is on record?
A: inactive: 2.47%

Q: For `CN(C)C1(CNC(=O)c2ccc(C(C)(C)C)cc2)CCCCC1`, which max response, negative = inhibition is on record?
A: inactive: 0.849%

Q: With `CCC(CO)(C(=O)OC1CN2CCC1CC2)c1ccccc1` (stereo not given) as the compound, how does the max response, negative = inhibition read?
A: inactive: 0.151%

Q: For `COc1cc(C(=O)NCC2(N3CCOCC3)CCCCC2)cc(OC)c1OC`, which max response, negative = inhibition is on record?
A: inactive: -0.17%

Q: Which max response, negative = inhibition does the source give for `O=C(O)C1(Nc2ccccc2)CCN(Cc2ccccc2)CC1` here?
A: inactive: 7.01%

Q: With `CCOc1ncccc1C(=O)NCC1(N2CCOCC2)CCCCC1` as the compound, how does the max response, negative = inhibition read?
A: inactive: -0.532%

Q: Which max response, negative = inhibition does the source give for `O=C(OC1CN2CCC1CC2)C1c2ccccc2C=Cc2ccccc21` (stereo not given) here?
A: inactive: 1.32%

Q: How did the max response, negative = inhibition turn out when `N/C(=N\O)c1c(N)no[n+]1[O-]` was run?
A: inactive: 1.46%

Q: `c1ccc(CN2CCC(Nc3ccccc3)CC2)cc1` was tested. Which max response, negative = inhibition did it give?
A: inactive: 5.46%

Q: With `O=C(NCC1(N2CCOCC2)CCCCC1)c1ccccc1` as the compound, how does the max response, negative = inhibition read?
A: inactive: 1.08%

Q: How did the max response, negative = inhibition turn out when `ClCCOP(OCCCl)OCCCl` was run?
A: inactive: -0.963%

Q: `O=C(NCC1(N2CCOCC2)CCCCC1)c1ccc([N+](=O)[O-])cc1` was tested. Which max response, negative = inhibition did it give?
A: inactive: 10.2%

Q: For `O=C(NCC1(N2CCOCC2)CCCCC1)c1ccccc1[N+](=O)[O-]`, which max response, negative = inhibition is on record?
A: inactive: -2.53%
